Measurements from publication PMC11740726 (PNAS Nexus, 2025).

Test system: SARS-CoV-2^WK-521
Assay: In vitro selection of resistant variants by propagating SARS-CoV-2^WK-521 in VeroE6^TMPRSS2 cells with increasing drug concentrations
Conditions: increasing concentrations (TKB272 up to 20 µM)

CC(C)(C)[C@H](NC(=O)C(F)(F)F)C(=O)N1C[C@H]2[C@@H]([C@H]1C(=O)N[C@H](C#N)C[C@@H]1CCNC1=O)C2(C)C [Nirmatrelvir, reference compound]
passage at which amino acid substitution in the M^pro-encoding gene was first seen under drug selection: 9 passage
